In patent publication US11642359B2, “Nutritional composition for improving intestinal barrier integrity, preparation of the composition and method of treatment” (priority 2018, dated 2023):
No dose or concentration is given here for some results.

Assay: Growth-associated variables (body weight, body/tail length ratio, BMI, Lee Index) in rotavirus-infected suckling rats
Assay type: in vivo, rat
Details: mean ± S.E.M. (n = 12); for Body weight: oral once daily day 2-16; for Lee Index: (weight^0.33/length)×1000; for BMI: body weight/length^2
[1] = day 8, RV-infected suckling rats
[2] = day 16, RV-infected suckling rats

For 2′-fucosyllactose [2′-FL], which Body weight (day 8 (peak of diarrhea), RV (simian SA-11)-infected suckling rats) is on record?
The Body weight was 13.51 ± 0.19 g.

What about the “Lee Index” value [1] of the same substance?
Its value is 343.49 ± 2.46.

What about the Body/tail length ratio [1] of the same substance?
Its Body/tail length ratio is 2.32 ± 0.03.

What about the BMI [1] of the same substance?
The BMI was 0.28 ± 0.01 g/cm^2.

And the Body weight (day 16 (end of study), RV-infected suckling rats)?
The Body weight was 32.79 ± 0.50 g.

What about the “Lee Index” value [2] of the same substance?
Its value is 337.93 ± 3.48.

And the Body/tail length ratio [2]?
The Body/tail length ratio was 1.86 ± 0.05.

What about the BMI [2] of the same substance?
Its BMI is 0.37 ± 0.01 g/cm^2.
